{"source": "PubChem BioAssay AID1224833 (University of Georgia, 2016)", "purpose": "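Human genes whose knock-down alters rotavirus replication in monkey cells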 (primary screen)", "cells": "monkey MA104 kidney cells", "reagent": "siRNA pool against human genes, 50 nM", "timing": "48 h knock-down before infection; read 24 h after infection", "challenge": "infection with rotavirus strain RV3 two days after transfection; infectious dose for this stage not given", "measurement": "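z-score of rotavirus antigen signal per well, from a fluorescent immunoassay, relative to non-targeting control wells on the same plate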", "direction": "z-score vs non-targeting control: higher = more rotavirus replication than with non-targeting control", "rule for the call": "In these data the active calls have z-score vs non-targeting control at about -1 or lower, or at about 1 or higher", "meaning of the calls": "active = z-score beyond 1 either way; inactive = z-score within 1 of zero", "note": "This is one part, drawn at random, of about 12,000 reagents tested. About 5,600 of them (46%) count as active. 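Active calls cover z-scores past 1 in both directions, so they include lowered as well as raised rotavirus replication.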 No sequences are given here."}
{"gene": "DNAH10", "PubChem SID": "SID329583359", "z-score vs non-targeting control": -0.385, "activity call": "inactive"}
{"gene": "OR6C65", "PubChem SID": "SID329584523", "z-score vs non-targeting control": -0.234, "activity call": "inactive"}
{"gene": "DNMT1", "PubChem SID": "SID329573429", "z-score vs non-targeting control": -1.49, "activity call": "active"}
{"gene": "CYBB", "PubChem SID": "SID329573328", "z-score vs non-targeting control": 1.12, "activity call": "active"}
{"gene": "NIPSNAP3A", "PubChem SID": "SID329578230", "z-score vs non-targeting control": -0.996, "activity call": "inactive"}
{"gene": "STXBP2", "PubChem SID": "SID329575521", "z-score vs non-targeting control": 0.761, "activity call": "inactive"}
{"gene": "OR4F16", "PubChem SID": "SID329581293", "z-score vs non-targeting control": -2.21, "activity call": "active"}
{"gene": "PTGIS", "PubChem SID": "SID329575013", "z-score vs non-targeting control": 0.613, "activity call": "inactive"}
{"gene": "EGLN1", "PubChem SID": "SID329579338", "z-score vs non-targeting control": 3.2, "activity call": "active"}
{"gene": "ZNF616", "PubChem SID": "SID329581941", "z-score vs non-targeting control": 0.149, "activity call": "inactive"}
{"gene": "VPS33B", "PubChem SID": "SID329578363", "z-score vs non-targeting control": -1.6, "activity call": "active"}
{"gene": "JPH1", "PubChem SID": "SID329580053", "z-score vs non-targeting control": -1.68, "activity call": "active"}
{"gene": "NAXE", "PubChem SID": "SID329582598", "z-score vs non-targeting control": -2.19, "activity call": "active"}
{"gene": "MOAP1", "PubChem SID": "SID329580572", "z-score vs non-targeting control": -1.12, "activity call": "active"}
{"gene": "PBDC1", "PubChem SID": "SID329578989", "z-score vs non-targeting control": 2.25, "activity call": "active"}
{"gene": "CA7", "PubChem SID": "SID329572985", "z-score vs non-targeting control": 1.4, "activity call": "active"}
{"gene": "ADAMTS8", "PubChem SID": "SID329577533", "z-score vs non-targeting control": 0.897, "activity call": "inactive"}
{"gene": "AGPAT2", "PubChem SID": "SID329577234", "z-score vs non-targeting control": 0.646, "activity call": "inactive"}
{"gene": "PPARA", "PubChem SID": "SID329574917", "z-score vs non-targeting control": -1.02, "activity call": "active"}
{"gene": "SYT1", "PubChem SID": "SID329575540", "z-score vs non-targeting control": -0.8, "activity call": "inactive"}
{"gene": "VCX2", "PubChem SID": "SID329579085", "z-score vs non-targeting control": -0.455, "activity call": "inactive"}
{"gene": "TYW2", "PubChem SID": "SID329579535", "z-score vs non-targeting control": 0.686, "activity call": "inactive"}
{"gene": "ANKRD6", "PubChem SID": "SID329577701", "z-score vs non-targeting control": -0.257, "activity call": "inactive"}
{"gene": "NOXRED1", "PubChem SID": "SID329582454", "z-score vs non-targeting control": 0.469, "activity call": "inactive"}
{"gene": "JAML", "PubChem SID": "SID329582402", "z-score vs non-targeting control": 2, "activity call": "active"}
{"gene": "TAPBP", "PubChem SID": "SID329575562", "z-score vs non-targeting control": 0.992, "activity call": "inactive"}
{"gene": "SSR3", "PubChem SID": "SID329575493", "z-score vs non-targeting control": 0.0472, "activity call": "inactive"}
{"gene": "IFITM2", "PubChem SID": "SID329577256", "z-score vs non-targeting control": -1.09, "activity call": "active"}
{"gene": "ENO2", "PubChem SID": "SID329573539", "z-score vs non-targeting control": 0.586, "activity call": "inactive"}
{"gene": "TNFSF13", "PubChem SID": "SID329576268", "z-score vs non-targeting control": -1.12, "activity call": "active"}
{"gene": "CRYBG1", "PubChem SID": "SID329572733", "z-score vs non-targeting control": -0.991, "activity call": "inactive"}
{"gene": "CLGN", "PubChem SID": "SID329573129", "z-score vs non-targeting control": -0.801, "activity call": "inactive"}
